Data as given in PubChem BioAssay AID1259414 (Drosophila RNAi Screening Center, 2018).

Screen: 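Host factors increasing or decreasing Wolbachia levels in cultured fly cells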 (primary screen)
Cells: Drosophila JW18 cells infected with Wolbachia
Reagents: long dsRNA against Drosophila genes, 0.25 µg dsRNA per well of a 384-well plate
Time to read-out: 5 days
Challenge: cells persistently infected with Wolbachia before knock-down; no added drug
Measured: 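Imaged fluorescence in situ signal for Wolbachia 23S rRNA per DAPI-counted host cell, given as a robust z-score within each plate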
Reading the numbers: Wolbachia per cell robust z: higher = more Wolbachia per host cell than the plate typical
Call rule: 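Active if absolute robust z reaches 1.5 in two or more of three replicates, leaving out multi- or no-target dsRNAs, genes unexpressed in JW18 and A1 wells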
The screen tested about 24,000 reagents; shown is a random part of those that have a named target and a result. Over the whole deposit, about 1,210 (5%) got an active call. 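Inactive calls also include excluded dsRNAs with several or no targets, genes unexpressed in JW18, and well A1, regardless of score.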 Unmarked entries are inactive. Reagent sequences are not shown.

eater (GeneID 43262) [DRSC15969] scored Wolbachia per cell robust z, rep 1 = 0.089; Wolbachia per cell robust z, rep 2 = -0.712; Wolbachia per cell robust z, rep 3 = -0.65.
Against eater (GeneID 43262) [DRSC22254] the deposit lists Wolbachia per cell robust z, rep 1 = -0.131; Wolbachia per cell robust z, rep 2 = -0.0762; Wolbachia per cell robust z, rep 3 = 0.0769.
After knock-down of eater (GeneID 43262) [DRSC29945], the record shows Wolbachia per cell robust z, rep 1 = -2.81; Wolbachia per cell robust z, rep 2 = 0.185; Wolbachia per cell robust z, rep 3 = 1.26.
CG4849 (GeneID 43358) [DRSC15662] scored Wolbachia per cell robust z, rep 1 = 1.13 (active); Wolbachia per cell robust z, rep 2 = 2.09; Wolbachia per cell robust z, rep 3 = 2.19.
For CG4849 (GeneID 43358) [DRSC27175], the values are Wolbachia per cell robust z, rep 1 = 0.601; Wolbachia per cell robust z, rep 2 = 0.619; Wolbachia per cell robust z, rep 3 = 0.328.

Records above whose target name begins with C or c (2):
CG4849 (GeneID 43358) [DRSC15662] → Wolbachia per cell robust z, rep 1 = 1.13 (active); Wolbachia per cell robust z, rep 2 = 2.09; Wolbachia per cell robust z, rep 3 = 2.19
CG4849 (GeneID 43358) [DRSC27175] → Wolbachia per cell robust z, rep 1 = 0.601; Wolbachia per cell robust z, rep 2 = 0.619; Wolbachia per cell robust z, rep 3 = 0.328

Additional records:
CG31802 (GeneID 318949) [DRSC02459] scored Wolbachia per cell robust z, rep 1 = 0.133; Wolbachia per cell robust z, rep 2 = -1.22; Wolbachia per cell robust z, rep 3 = -1.35.
Bfc (GeneID 38138) [DRSC08623] scored Wolbachia per cell robust z, rep 1 = -0.409; Wolbachia per cell robust z, rep 2 = 0.119; Wolbachia per cell robust z, rep 3 = -1.08.
Against CG9592 (GeneID 39585) [DRSC11078] the deposit lists Wolbachia per cell robust z, rep 1 = 0.163; Wolbachia per cell robust z, rep 2 = -0.159; Wolbachia per cell robust z, rep 3 = -0.591.
With knock-down of RpS19b (GeneID 42830) [DRSC15773], the screen gave Wolbachia per cell robust z, rep 1 = -5.5; Wolbachia per cell robust z, rep 2 = 0.779; Wolbachia per cell robust z, rep 3 = 0.894.
CG6749 (GeneID 39144) [DRSC10704] gave Wolbachia per cell robust z, rep 1 = -2.22; Wolbachia per cell robust z, rep 2 = 0.534; Wolbachia per cell robust z, rep 3 = -0.0902.
Knock-down of CG17027 (GeneID 39742) [DRSC10238] came out at: Wolbachia per cell robust z, rep 1 = 0.21; Wolbachia per cell robust z, rep 2 = 1.14; Wolbachia per cell robust z, rep 3 = 0.378.
After knock-down of CG17027 (GeneID 39742) [DRSC25560], the record shows Wolbachia per cell robust z, rep 1 = -1.31; Wolbachia per cell robust z, rep 2 = -1.57; Wolbachia per cell robust z, rep 3 = 0.401.
With knock-down of CG3294 (GeneID 33677) [DRSC00590], the screen gave Wolbachia per cell robust z, rep 1 = -1.93; Wolbachia per cell robust z, rep 2 = 0.156; Wolbachia per cell robust z, rep 3 = 0.304.
With knock-down of CG3294 (GeneID 33677) [DRSC26228], the screen gave Wolbachia per cell robust z, rep 1 = 0.212; Wolbachia per cell robust z, rep 2 = 1.21; Wolbachia per cell robust z, rep 3 = -0.588.
Knock-down of CG4133 (GeneID 33221) [DRSC23122] resulted in: Wolbachia per cell robust z, rep 1 = -0.135; Wolbachia per cell robust z, rep 2 = 0.00121; Wolbachia per cell robust z, rep 3 = 0.219.
Against lncRNA:CR34335 (GeneID 12798102) [DRSC38742], the values are Wolbachia per cell robust z, rep 1 = -0.186; Wolbachia per cell robust z, rep 2 = 0.759; Wolbachia per cell robust z, rep 3 = -0.00133.
